Measured values published in patent US20190046536A1, “Combination Therapy” (Eli Lilly and Company, priority 2016, published 2019).

Target: T1, Aβ […] peptide (Homo sapiens)
T1 construct: Aβ 1-40 peptide
Experiment: Binding affinity and kinetics by surface plasmon resonance (BIACORE 3000)
Details: 25° C., HBS-EP buffer pH 7.4
Description: The binding affinity and kinetics of an anti-[…] […] The binding affinity is measured by capturing the anti-[…] AP antibody via immobilized protein A on a BIACORE® CMS chip, and flowing pE3-42 Aβ peptide or Aβ 1-40 peptide, starting from 100 nM in 2-fold serial dilution down to 3.125 nM. The experiments are carried out at 25° C. in HBS-EP buffer (GE Healthcare BR100669; 10 mM HEPES, 150 mM NaCl, 3 mM EDTA, 0.05% surfactant P20, pH 7.4). For each cycle, the antibody is captured with 5 μL injection of antibody solution at a 10 μg/mL concentration with 10 μL/min flow rate. The peptide is bound with 250 μL injection at 50 μL/min, and then dissociated for 10 minutes. The chip surface is regenerated with 5 μL injection of glycine buffer at pH 1.5 at 10 μL/mL flow rate. The data is fit to a 1:1 Langmiur binding model to derive kon, koff, and to calculate KD.

| Molecule | binding to Aβ 1-40 |
| --- | --- |
| Antibody I: anti-N3pGlu Abeta antibody with LC of SEQ ID NO: 12 and HC of SEQ ID NO: 11 (antibody) heavy: QVQLVQSGAEVKKPGSSVKVSCKASGYTFTDYYINWVRQAPGQGLEWMGWINPGSGNTKYNEKFKGRVTITADESTSTAYMELSSLRSEDTAVYYCTREGETVYWGQGTLVTVSSASTKGPSVFPLAPSSKSTSGGTAALGCLVKDYFPEPVTVSWNSGALTSGVHTFPAVLQSSGLYSLSSVVTVPSSSLGTQTYICNVNHKPSNTKVDKKV[letters of human IgG1 Fc left out] light: DVVMTQSPLSLPVTLGQPASISCKSSQSLLYSRGKTYLNWFQQRPGQSPRRLIYDVSKLDSGVPDRFSGSGSGTDFTLKISRVEAEDVGVYYCVQGTHYPFTFGQGTKLEIKRTVAAPSVFIFPPSDEQLKSGTASVVCLLNNFYPREAKVQWKVDNALQSGNSQESVTEQDSKDSTYSLSSTLTLSKADYEKHKVYACEVTHQGLSSPVTKSFNRGEC | No appreciable binding |
| Antibody II: anti-N3pGlu Abeta antibody with LC of SEQ ID NO: 13 and HC of SEQ ID NO: 11 (antibody) heavy: QVQLVQSGAEVKKPGSSVKVSCKASGYTFTDYYINWVRQAPGQGLEWMGWINPGSGNTKYNEKFKGRVTITADESTSTAYMELSSLRSEDTAVYYCTREGETVYWGQGTLVTVSSASTKGPSVFPLAPSSKSTSGGTAALGCLVKDYFPEPVTVSWNSGALTSGVHTFPAVLQSSGLYSLSSVVTVPSSSLGTQTYICNVNHKPSNTKVDKKV[letters of human IgG1 Fc left out] light: DIQMTQSPSTLSASVGDRVTITCKSSQSLLYSRGKTYLNWLQQKPGKAPKLLIYAVSKLDSGVPSRFSGSGSGTEFTLTISSLQPDDFATYYCVQGTHYPFTFGQGTKLEIKRTVAAPSVFIFPPSDEQLKSGTASVVCLLNNFYPREAKVQWKVDNALQSGNSQESVTEQDSKDSTYSLSSTLTLSKADYEKHKVYACEVTHQGLSSPVTKSFNRGEC | No appreciable binding |
